A mixed list of measured activities; the numbers were collected in NIAID ChemDB.

Common to all: tests in culture; species: Hepatitis C virus; measure: EC50

ECn is the concentration giving n% inhibition of infection, replication or growth. Two numbers with a dash give a range or band. Conditions beyond the fields shown may differ between rows. Blank or dashed fields: not listed here.

smiles	read by	changes	cells	strain	value
Cc1ncsc1C(=O)Nc1ccc(-c2cc(N(C(=O)C3CCC(C)CC3)C(C)C)c(C(=O)O)s2)cc1	replicon			1a	<0.5 µM
O=C(Cc1ccccc1)N/N=C/c1ccccc1OS(=O)(=O)c1ccc2ccccc2c1	replicon		Huh7		<5 µM
NC(=O)c1cccc(Cn2c(C(=O)O)c(-c3ccc[nH]c3=O)c3c4occc4c(F)cc32)c1	replicon				<0.5 µM
CS(=O)(=O)CCNc1nc(N)nc2ccc(-c3ccc(C(=O)NC4CC4)cc3)nc12	replicon		Huh7		0.3–1 µM
CN(C)S(=O)(=O)NC(=O)c1ccc2c(C3CCCCC3)c3n(c2c1)CCCc1ccccc1-3	replicon		Huh7		0.01–1 µM
CCN(c1cc2oc(-c3ccc(F)cc3)c(C(=O)NC)c2cc1OC(C)C)S(C)(=O)=O	replicon		Huh7		<1 µM
O=C(O)/C=C/c1ccc(NC(=O)C2(NC(=O)c3ccc4c(C5CCCCC5)c5n(c4c3)CCCc3cccnc3-5)CCNCC2)cc1	replicon		Huh7		0.01–1 µM
COc1cccc(CC(=O)N/N=C/c2cccc(OC)c2OS(=O)(=O)c2ccc(C(F)(F)F)cc2)c1	replicon		Huh7		<5 µM
CNC(=O)c1c(-c2ccc(F)cc2)oc2cc(N(Cc3cccc(CBr)n3)S(C)(=O)=O)c(OCc3cccc(CBr)n3)cc12	replicon		Huh7		<10 µM
CC(C)(CN1CCCC1)NC(=O)c1ccc(-c2ccc3nc(N)nc(O[C@H]4CCOC4)c3n2)cc1	replicon		Huh7		<0.3 µM
CCCCCOc1ccc(N(C(=O)CC(=O)OC)c2nc(-c3ccc(F)cc3)cs2)cc1F					<1 µM
O=C(Cc1ccccc1)N/N=C/c1ccccc1OS(=O)(=O)c1ccccc1Cl	replicon		Huh7		>50 µM
CCn1nccc1C(=O)Nc1ccc(-c2cc(N(C(=O)C3CCC(C)CC3)C(C)C)c(C(=O)O)s2)cc1	replicon			1a	>0.5 µM
COc1ccc(CC(=O)N/N=C/c2ccccc2OS(=O)(=O)c2ccc(C(F)(F)F)cc2)cc1	replicon		Huh7		<5 µM
CNC(=O)c1c(-c2ccc(F)cc2)oc2cc(OCc3ccccc3)c(OCc3ccccc3)cc12	replicon		Huh7		<10 µM
CCOC(=O)c1cc2cc(NC(=O)C3(NC(=O)c4ccc5c(C6CCCCC6)c6n(c5c4)CC(C(=O)NCCN(C)C)Nc4nccnc4-6)CCCC3)ccc2n1C	replicon		Huh7		0.01–1 µM
Cc1[nH]c2ccc3c(c(-c4ccccc4F)c(C(=O)O)n3Cc3ccccc3)c2c1C	replicon				>1.5 µM
NC(=S)Nc1cccc(OCCCCCNc2ccccc2-c2ccco2)c1	reporter gene / fluorescence		Ava5-EG(delta4AB)SEAP		0.001–1 µM
O=C(O)c1c(-c2ccc[nH]c2=O)c2c3occc3c(F)cc2n1Cc1nc(Br)ccc1F	replicon				<0.5 µM
COC(=O)N[C@H](C(=O)N1CCCC1c1ncc(-c2ccc(-c3ccc(-c4cnc([C@@H]5CC(C)CN5C(=O)[C@@H](NC(=O)CO)C(C)C)[nH]4)cc3)cc2)[nH]1)C(C)C	luciferase	Q30K	Lunet	1a	0.005 µM
CCOc1nc(NCc2ccc(S(N)(=O)=O)cc2)nc2ccc(-c3ccc(NC(=O)NC4CC4)cc3)nc12	replicon				<0.1 µM
CNC(=O)c1ccc(F)c(Cn2c(C(=O)O)c(-c3ccc[nH]c3=O)c3c4occc4c(F)cc32)c1	replicon				<0.5 µM
CC1(C)CC(=O)C2=C(C1)Nc1c(O)cccc1NC2c1ccc(Cl)c(Cl)c1	luciferase / reporter gene / replicon			1b	15.8 µM
O=C(Cc1ccccc1Oc1ccccc1)N/N=C/c1ccccc1OS(=O)(=O)c1ccc(C(F)(F)F)cc1	replicon		Huh7		<5 µM
CCCCCCCCOc1ccc(N(C(=O)C(=O)OC)c2nc(-c3ccc(F)c(F)c3)cs2)cc1					<1 µM
O=C(O)c1c(-c2ccc[nH]c2=O)c2c3occ(Cl)c3ccc2n1Cc1cc(F)ccc1F	replicon				<0.5 µM
Nc1nc(O[C@@H]2CCOC2)c2nc(-c3ccc(NC(=O)[C@H]4CCNC4)c(F)c3)ccc2n1	replicon		Huh7		<0.3 µM
COC(=O)c1ccc2c(C3CCCCC3)c3n(c2c1)CC(N1CCOCC1)Cc1cccnc1-3	replicon		Huh7		0.01–1 µM
CCCCCCCCOc1ccc(N(C(=O)NCC(=O)O)c2nc(-c3cccnc3)c(F)s2)cc1C(F)(F)F					<1 µM
CN(CCS(C)(=O)=O)c1nc(NCc2ccc(F)cc2)nc2ccc(-c3ccc(NC(=O)C4(O)CC4)cc3)nc12	replicon				<0.1 µM
CC1C=C(F)C(Cn2c(C(=O)O)c(-c3ccc[nH]c3=O)c3c4occc4c(F)cc32)=CC1=O	replicon				<0.5 µM
NC(=S)Nc1cccc(OCCCCCNc2cccc3ccccc23)c1	reporter gene / fluorescence		Ava5-EG(delta4AB)SEAP		0.001–1 µM
CS(=O)(=O)NC(=O)c1c(-c2ccc[nH]c2=O)c2c3occc3ccc2n1Cc1cc2ccccc2nc1Cl	replicon				<0.5 µM
CCCNc1ccc2c(c1)Cc1cc(NC(N)=S)ccc1-2	reporter gene / fluorescence		Ava5-EG(delta4AB)SEAP		0.001–1 µM
CCOc1nc(NCc2ccc(F)cc2)nc2ccc(-c3ccc(NC(=O)N4CCOCC4)cc3)nc12	replicon				<0.1 µM
CNC(=O)c1c(-c2ccc(OC)cc2)oc2ccc(OC)cc12	replicon		Huh7		<10 µM
Cc1cc(C(=O)Nc2ccc(-c3cc(N(C(=O)C4CCC(C)CC4)C(C)C)c(C(=O)O)s3)cc2)on1	replicon			1a	<0.5 µM
NC(=S)Nc1ccc(OCCCCCOc2ccc(Cl)cc2Cl)cc1	reporter gene / fluorescence		Ava5-EG(delta4AB)SEAP		0.001–1 µM
CC1(C)CC(=O)C2=C(C1)Nc1c(O)cccc1N(C(=O)CCC(=O)N1CCC(c3ccccc3)CC1)C2c1ccc(OCc2ccccc2)cc1Cl	luciferase / reporter gene / replicon			1b	4.31 µM
CC(C)Nc1nc(NCc2ccccn2)nc2ccc(-c3ccc(F)cc3)nc12	replicon				0.1–0.25 µM
CNC(=O)c1c(-c2ccc(F)cc2)oc2cc(C3(C)NC(=O)NC3=O)c(OC)cc12	replicon		Huh7		<10 µM
COc1cccc(CC(=O)N/N=C/c2cccc(F)c2OS(=O)(=O)c2ccc(C)cc2)c1	replicon		Huh7		5–50 µM
CC(C)N1CCC(NS(=O)(=O)c2cc(-c3ccc4nc(NCc5ccc(S(N)(=O)=O)cc5)nc(NCC(F)(F)F)c4n3)ccc2Cl)CC1	replicon				<0.1 µM
Cc1cccc(C(=O)N2c3cccc(O)c3NC3=C(C(=O)CC(C)(C)C3)C2c2ccc(OCc3cccc(F)c3)cc2F)n1	luciferase / reporter gene / replicon			1b	1.12 µM
CC(C)(C)OC(=O)/C=C/c1ccc(NC(=O)C2(NC(=O)c3ccc4c(C5CCCCC5)c5n(c4c3)CC(=O)N5Cc3ccccc3)CCCC2)cc1	replicon		Huh7		>10 µM
CC1(C)CC(=O)C2=C(C1)Nc1c(O)cccc1N(C(=O)C1COc3ccccc3O1)C2c1ccc(OCc2ccccc2)cc1F	luciferase / reporter gene / replicon			1b	1.13 µM
O=S(=O)(N/N=C/c1ccccc1OS(=O)(=O)c1ccc(C(F)(F)F)cc1)c1ccccc1	replicon		Huh7		5–50 µM
CCN(C)S(=O)(=O)NC(=O)c1ccc2c(C3CCCCC3)c3n(c2c1)CC(C(=O)N1CCOCC1)=Cc1ccccc1-3	replicon		Huh7		0.01–1 µM
Cc1ccc(S(=O)(=O)Oc2ccc(F)cc2/C=N/NC(=O)Cc2cccc(Cl)c2)cc1	replicon		Huh7		<5 µM
COC(=O)c1ccc2c(C3CCCCC3)c3n(c2c1)CC(C(=O)N1CCOCC1)=Cc1cc(OC)ccc1-3	replicon		Huh7		0.01–1 µM
CNC(=O)c1c(-c2ccc(F)cc2)oc2cc(C)c(OC(C)C)cc12	replicon		Huh7		<10 µM
Cc1cc(OCc2ccccc2)ccc1C1Nc2cccc(O)c2NC2=C1C(=O)CC(C)(C)C2	luciferase / reporter gene / replicon			1b	1.4 µM
CCCCCOc1ccc(N(C(=O)C2CCCCC2)c2nc(-c3ccccn3)cs2)cc1C(F)(F)F					<1 µM
O=C(Cc1ccc(Br)cc1)N/N=C/c1ccccc1OS(=O)(=O)c1ccc(C(F)(F)F)cc1	replicon		Huh7		<5 µM
CCN(CC)S(=O)(=O)NC(=O)c1ccc2c(C3CCCCC3)c3n(c2c1)CC(C(=O)N1CCOCC1)=Cc1ccccc1-3	replicon		Huh7		0.01–1 µM
Cc1nc(C(=O)Nc2ccc(-c3cc(N(C(=O)C4CCC(C)CC4)C(C)C)c(C(=O)O)s3)cc2)cs1	replicon			1a	<0.5 µM
CS(=O)(=O)CCNc1nc(NCc2ccc(F)cc2)nc2ccc(-c3ccc(F)cc3)nc12	replicon				<0.1 µM
CC1CCC(C(=O)N(c2cc(-c3ccc(NC(=O)c4cnco4)cc3)sc2C(=O)O)C(C)C)CC1	replicon			1a	>0.5 µM
C=CCOc1cc2c(C(=O)NC)c(-c3ccc(F)cc3)oc2cc1N(C)S(C)(=O)=O	replicon		Huh7		<1 µM
NC(=S)Nc1cccc(OCCCCCOc2ccc(-c3ccco3)cc2)c1	reporter gene / fluorescence		Ava5-EG(delta4AB)SEAP		0.001–1 µM
NC(=O)COc1ccc2c(c1)S(=O)(=O)N=C(c1c(O)c3cc(F)ccc3n(CCC3CC3)c1=O)N2	replicon			1a 45996	0.97 µM

A second listing of 8 rows from above:

smiles,read by,changes,cells,strain,value
COC(=O)N[C@H](C(=O)N1CCCC1c1ncc(-c2ccc(-c3ccc(-c4cnc([C@@H]5CC(C)CN5C(=O)[C@@H](NC(=O)CO)C(C)C)[nH]4)cc3)cc2)[nH]1)C(C)C,luciferase,Q30K,Lunet,1a,0.005 µM
CS(=O)(=O)CCNc1nc(N)nc2ccc(-c3ccc(C(=O)NC4CC4)cc3)nc12,replicon,,Huh7,,0.3–1 µM
NC(=O)COc1ccc2c(c1)S(=O)(=O)N=C(c1c(O)c3cc(F)ccc3n(CCC3CC3)c1=O)N2,replicon,,,1a 45996,0.97 µM
Nc1nc(O[C@@H]2CCOC2)c2nc(-c3ccc(NC(=O)[C@H]4CCNC4)c(F)c3)ccc2n1,replicon,,Huh7,,<0.3 µM
COc1cccc(CC(=O)N/N=C/c2cccc(OC)c2OS(=O)(=O)c2ccc(C(F)(F)F)cc2)c1,replicon,,Huh7,,<5 µM
Cc1cc(C(=O)Nc2ccc(-c3cc(N(C(=O)C4CCC(C)CC4)C(C)C)c(C(=O)O)s3)cc2)on1,replicon,,,1a,<0.5 µM
CS(=O)(=O)CCNc1nc(NCc2ccc(F)cc2)nc2ccc(-c3ccc(F)cc3)nc12,replicon,,,,<0.1 µM
CNC(=O)c1ccc(F)c(Cn2c(C(=O)O)c(-c3ccc[nH]c3=O)c3c4occc4c(F)cc32)c1,replicon,,,,<0.5 µM